In series [1] the target is Sumo-Fur (Staphylococcus aureus Newman) (UniProt Q9R303). Nature of the series: EMSA. To be noted: Fur EMSA/footprint: 10 mM Tris-borate pH 8.0, 1 mM MgCl2, 25 mM KCl, 100 uM MnCl2, 50 ug/mL BSA, room temp 20 min, competition EMSA same plus 20 mM citrate, 25 C, recombinant protein, residues 1-149, protein details: N-terminal Sumo (pET28a-sumo), Ni-NTA purified, probe letters rebuilt from the primers and the genome.

Series [2] deals with Fur (Sumo removed) (Staphylococcus aureus Newman) (UniProt Q9R303). The experiment in a line: EMSA competition. To be noted: 20 mM citrate, 100 uM Mn2+, competes with prebound CcpE and is competed by CcpE; Fur EMSA/footprint: 10 mM Tris-borate pH 8.0, 1 mM MgCl2, 25 mM KCl, 100 uM MnCl2, 50 ug/mL BSA, room temp 20 min; competition EMSA same plus 20 mM citrate, 25 C; recombinant protein; residues 1-149; probe letters rebuilt from the primers and the genome. For orientation: A gel shift assay detects complexes by their altered migration in electrophoresis.

Series [3] has as its target Sumo-Fur (Staphylococcus aureus Newman) (UniProt Q9R303). The experiment in a line: DNase I footprinting. The following applies: 100 uM Mn2+; Fur EMSA/footprint: 10 mM Tris-borate pH 8.0, 1 mM MgCl2, 25 mM KCl, 100 uM MnCl2, 50 ug/mL BSA, room temp 20 min; competition EMSA same plus 20 mM citrate, 25 C; recombinant protein; residues 1-149; protein details: N-terminal Sumo (pET28a-sumo), Ni-NTA purified; label: 5'-FAM on forward strand; probe letters rebuilt from the primers and the genome.

With “TAATTCAAAGTACCGCTATCTGCGGCATTTGCAGAATTACTGAATGTCGCGATGATGATAATTAACGCTAAAATCGTTGTATTAAAAACTTTTAAAATATTTTTCAAAACATAATCCTCCTTTTTATGATTGCTTTTAAGTCTTTAGTAAAATCATAAATAATAATGATTATCATTGTCAATATTTATTTTATAATCAATTTATTATTGTTATACGAAAATAGATGTGCTAGTATAATTGATAACCATTATCAATTGCAATGGTTAATCATCTCATATAACAACACATAATTTGTATCCTTAGGAGGAAAACAACATGACAAAACATTATTTAAACAGTAAGTATCAATCAGAACAACG (double strand) [isdC promoter (isdA-isdC intergenic), EMSA]”, the binding result is given as “binds” in series [1] (100 uM Mn2+, no citrate); “binds” in series [1] (20 mM citrate plus increasing Mn2+, dose-dependent restoration); “binds” in series [2]. With “TAATTCAAAGTACCGCTATCTGCGGCATTTGCAGAATTACTGAATGTCGCGATGATGATAATTAACGCTAAAATCGTTGTATTAAAAACTTTTAAAATATTTTTCAAAACATAATCCTCCTTTTTATGATTGCTTTTAAGTCTTTAGTAAAATCATAAATAATAATGATTATCATTGTCAATATTTATTTTATAATCAATTTATTATTGTTATACGAAAATAGATGTGCTAGTATAATTGATAACCATTATCAATTGCAATGGTTAATCATCTCATATAACAACACATAATTTGTATCCTTAGGAGGAAAACAACATGACAAAACATTATTTAAACAGTAAGTATCAATCAGAACAACG (double strand) [isdC promoter (isdA-isdC intergenic), footprinting]”, in series [3], the binding result is “binds”.

With “GGCTGGGACATAAATCAATATTCTATGCTCTACGAAGTTATATTGGCAGTAGTTGACTGAACGAAAATGCGCTTGTAACAAGCTTTTTTCAATTCTAGTCAGGGGCCCCAACACAGAGAATTTCGAAAAGAAATTCTACAGGCAATGCGAGTTGGGGTGAGGGCCCCAACACAGAAGCTGACGAAAAGTCAGCTTACAATAATGTGCAAGTTGGGGATGGGCCCCAACAAAGAGAAATTGGATTCCCAATTTCTACAGACAATGCAAGTTGGGGTGGGACGACGAAATAAATTTTGCGAAAATATCATTTCTGTCCCACTCCCATCAAAAGAATGACATTGAAAAAAATATTAAAGTTTGGTGCCATAATTTTCTTTCTGCTCAATGAAATAATACGTTTAAAAATTGAATTGAATCATTCGCGAAATTGATAATTATTCTCAATTAATAAAAAATACTTATTACACCTTACCTGTATGATAAGTTTTGCTTATATACTCTGATTAAAAAGTCAAAACCTAAATTAAGCGTTTTCTAAGCATGATGAGTTGTTTATCAATAAATATAATAATACAATTTAATCAAGGCATATAAATATAAAAATGTATCAAGGGGGATCATTAAATGGCTGCAAATTTTAAAGAGCAATCAAAAAAACATTTTGACTTGAATGGCCAAAGTTATACTTACTATGATTT (double strand) [citB promoter (citB-p), EMSA]”, the binding result in series [1] (100 uM Mn2+, concentration dependent) is reported as “binds”. Turning to “GGCTGGGACATAAATCAATATTCTATGCTCTACGAAGTTATATTGGCAGTAGTTGACTGAACGAAAATGCGCTTGTAACAAGCTTTTTTCAATTCTAGTCAGGGGCCCCAACACAGAGAATTTCGAAAAGAAATTCTACAGGCAATGCGAGTTGGGGTGAGGGCCCCAACACAGAAGCTGACGAAAAGTCAGCTTACAATAATGTGCAAGTTGGGGATGGGCCCCAACAAAGAGAAATTGGATTCCCAATTTCTACAGACAATGCAAGTTGGGGTGGGACGACGAAATAAATTTTGCGAAAATATCATTTCTGTCCCACTCCCATCAAAAGAATGACATTGAAAAAAATATTAAAGTTTGGTGCCATAATTTTCTTTCTGCTCAATGAAATAATACGTTTAAAAATTGAATTGAATCATTCGCGAAATTGATAATTATTCTCAATTAATAAAAAATACTTATTACACCTTACCTGTATGATAAGTTTTGCTTATATACTCTGATTAAAAAGTCAAAACCTAAATTAAGCGTTTTCTAAGCATGATGAGTTGTTTATCAATAAATATAATAATACAATTTAATCAAGGCATATAAATATAAAAATGTATCAAGGGGGATCATTAAATGGCTGCAAATTTTAAAGAGCAATCAAAAAAACATTTTGACTTGAATGGCCAAAGTTATACTTACTATGATTT (double strand) [citB promoter, footprinting]”, the binding result in series [3] is on record as “binds”.

The values are drawn from publication PMC11315280.
